Results: article PMC12415213, “A genome-scale drug discovery pipeline uncovers therapeutic targets and a unique p97 allosteric binding site in Schistosoma mansoni” (Proceedings of the National Academy of Sciences of the …, 2025)

Test system: recombinant S. mansoni p97
Test: In-gel LC-MS/MS of peptides of p97 modified by covalent inhibitors
Design: species or system Schistosoma mansoni
Conditions: 100 μM inhibitor, trypsin digest

## O=C(C#Cc1ccccc1)Nc1ccc2oc(-c3ccncc3)nc2c1 [Compound 242]
  Abundance of modified peptide [K].ETVCVAIVDESCPDDKIR.[L] (63-80): 1.51E+05
  Abundance of modified peptide [K].FGMTPSKGVLFYGPPGCGK.[T] (503-521): 1.01E+05
  Abundance of modified peptide [K].GVLFYGPPGCGK.[T] (510-521, contains Cys519): 8.13E+08
  Abundance of modified peptide [K].IANEAHGHVGADLASLCSEAALQQIR.[N] (396-421): 1.78E+06
  Abundance of modified peptide [R].EDEEEKLNEIGYDDIGGCR.[K] (189-207): 1.10E+06
  Abundance of modified peptide [R].QAAPCVLFFDELDSIAK.[A] (565-581): 4.97E+06

## O=C(C#Cc1ccccc1)Nc1ccc2oc(-c3ccccn3)nc2c1 [Compound 243]
  Abundance of modified peptide [K].ATQGFSGADLTEICQR.[A] (675-690): 5.89E+06
  Abundance of modified peptide [K].ETVCVAIVDESCPDDKIR.[L] (63-80): 2.02E+06
  Abundance of modified peptide [K].FGMTPSKGVLFYGPPGCGK.[T] (503-521): 1.53E+06
  Abundance of modified peptide [K].GVLFYGPPGCGK.[T] (510-521, contains Cys519): 3.54E+09
  Abundance of modified peptide [K].IANEAHGHVGADLASLCSEAALQQIR.[N] (396-421): 5.64E+07
  Abundance of modified peptide [K].LNEIGYDDIGGCR.[K] (195-207): 8.32E+06
  Abundance of modified peptide [K].LNEIGYDDIGGCRK.[Q] (195-208): 1.47E+07
  Abundance of modified peptide [K].REDEEEKLNEIGYDDIGGCR.[K] (188-207): 3.26E+06
  Abundance of modified peptide [K].REDEEEKLNEIGYDDIGGCRK.[Q] (188-208): 2.02E+06
  Abundance of modified peptide [K].VIETDPSPYCIVSPDTTIHTEGDPVK.[R] (162-187): 5.08E+06
  Abundance of modified peptide [K].VIETDPSPYCIVSPDTTIHTEGDPVKR.[E] (162-188): 1.29E+07
  Abundance of modified peptide [K].VIETDPSPYCIVSPDTTIHTEGDPVKREDEEEK.[L] (162-194): 5.90E+05
  Abundance of modified peptide [R].EDEEEKLNEIGYDDIGGCR.[K] (189-207): 1.48E+07
  Abundance of modified peptide [R].QAAPCVLFFDELDSIAK.[A] (565-581): 5.59E+06
